Results of unrelated studies side by side (data: NIAID ChemDB).

Shared fields: toxicity to cultured cells; cells: U-937; endpoint: CC50

Rows are shuffled and stem from different studies.

SMILES | read by | value
CCCCC(=O)O/N=C1\c2ccccc2-c2c1c(-n1ccnc1)nc1ccc(Br)cc21 | MTT | >20 µg/mL
CC[C@@H]1O[C@@H]([C@]2(C)C[C@@H](C)[C@](O)([C@]3(C)CC[C@@H]([C@@H](O)[C@]4(O)O[C@H](C[C@@]5(O)O[C@@H]([C@@H](C)[C@H](O)C[C@@H]6O[C@H]([C@@H](C)C(=O)O)[C@@H](C)C[C@H]6C)CC[C@@H]5C)[C@@H](C)C[C@H]4C)O3)O2)CC[C@@]1(C)O | - | 0.8 µg/mL
C=C(C)[C@]12C[C@@H](COC(=O)c3ccccc3)[C@@]34O[C@]5(O[C@@H]1[C@@H]3[C@@H]1O[C@]1(CO)[C@@H](O)[C@@]1(O)[C@H]4[C@H]([C@H](C)[C@@H]1OC(=O)c1ccccc1)[C@H](C)CCCCCC[C@H]5O)O2 | luminescence | >2.5 µM
COC1CCC(OC2CC(C3(C)CCC4(CC(O)C(C)C(C(C)/C=C(\C)C(=O)C(C)CC(C)C(=O)O)O4)O3)OC3(OC(C4OC(O)(CO)C(C)CC4C)CC3C)C2C)OC1C | - | 1.1 µg/mL
Cc1cn([C@H]2C[C@H](N=[N+]=[N-])[C@@H](CO)O2)c(=O)[nH]c1=O | - | >1000 µM
Cc1cc(C#N)cc(C)c1Oc1nc(Nc2ccc(C#N)cc2)nc(N)c1Br | MTT / absorbance | 55 µM
Nc1nc(=O)n([C@@H]2CC[C@H](CO)O2)cc1F | - | 25 µM
Nc1nc(=O)n([C@@H]2CO[C@H](CO)S2)cc1F | - | >500 µM
COC1CCC(OC2CC(C3OC(O)(CO)C(C)CC3C)OC2C2(C)CCC(C3(C)CCC4(CC(O)C(C)C(C(C)C5OC(O)(CC(=O)O)C(C)C(OC6CCC(OC)C(C)O6)C5OC)O4)O3)O2)OC1C | - | 10.1 µg/mL
Nc1ccn([C@H]2CC[C@@H](CO)O2)c(=O)n1 | - | <0.95 µM
Nc1nc(=O)n([C@H]2CO[C@@H](CO)S2)cc1F | - | >500 µM
Cc1cn([C@H]2C[C@H](N=[N+]=[N-])[C@@H](CO)O2)c(=O)[nH]c1=O | MTT | 30 µM
CCCCCC(=O)O/N=C1\c2ccccc2-c2c1c(-n1ccnc1)nc1ccc(Br)cc21 | MTT | >10 µg/mL
Cc1cn([C@H]2C[C@H](N=[N+]=[N-])[C@@H](CO)O2)c(=O)[nH]c1=O | - | 91 µM
CC(C)(C)OC(=O)NC(Cc1ccccc1)C(=O)O/N=C1\c2ccccc2-c2c1c(N1CCN(c3ccccn3)CC1)nc1ccc(Br)cc21 | MTT | >20 µg/mL
CCCN(C)C(=O)Oc1nsnc1-c1c(Cl)ccc(N)c1Cl | - | 96 µM
CCC(=O)O/N=C1\c2ccccc2-c2c1c(N1CCN(c3ccccn3)CC1)nc1ccc(Br)cc21 | MTT | >20 µg/mL
Nc1ccn([C@@H]2O[C@H](CO)C[C@@H]2F)c(=O)n1 | - | 7.7 µg/mL
CCC(=O)O/N=C1\c2ccccc2-c2c1c(-n1ccnc1)nc1ccc(Br)cc21 | MTT | >20 µg/mL
CS(=O)CCCCN=C=S | MTT | 8.88 µM
CN(C)C(=O)OC1(C)c2ccccc2-c2c1c(-n1ccnc1)nc1ccc(Br)cc21 | MTT | >10 µg/mL
CC[C@@H](C(=O)[C@@H](C)[C@@H](O)[C@H](C)[C@@H]1O[C@@H]([C@@H](CC)C(=O)O)CC[C@@H]1C)[C@H]1O[C@@]2(C=C[C@@H](O)[C@@]3(CC[C@@](C)([C@H]4CC[C@](O)(CC)[C@H](C)O4)O3)O2)[C@H](C)C[C@@H]1C | - | 0.28 µg/mL

The last 2 rows once more:

| SMILES | read by | value |
|---|---|---|
| CN(C)C(=O)OC1(C)c2ccccc2-c2c1c(-n1ccnc1)nc1ccc(Br)cc21 | MTT | >10 µg/mL |
| CC[C@@H](C(=O)[C@@H](C)[C@@H](O)[C@H](C)[C@@H]1O[C@@H]([C@@H](CC)C(=O)O)CC[C@@H]1C)[C@H]1O[C@@]2(C=C[C@@H](O)[C@@]3(CC[C@@](C)([C@H]4CC[C@](O)(CC)[C@H](C)O4)O3)O2)[C@H](C)C[C@@H]1C | - | 0.28 µg/mL |

An empty or dashed field is not shown. CCn: concentration that lowers growth or viability of the cells by n%.